Tested on: Mtb K204

Row | Compound | effect on KAN resistance of Mtb K204 (in words)
1 | CN(c1ccccc1)S(=O)(=O)c1ccc2[nH]c(=O)c(=O)[nH]c2c1 [Compound 31] | did not overcome KAN resistance
2 | O=c1[nH]c2ccc(S(=O)(=O)Nc3ccccc3)cc2[nH]c1=O [Compound 32] | inert in that assay
3 | COc1ccccc1N(C)S(=O)(=O)c1ccc2[nH]c(=O)c(=O)[nH]c2c1 [Compound 36] | inert in that assay
4 | COc1cccc(N(C)S(=O)(=O)c2ccc3[nH]c(=O)c(=O)[nH]c3c2)c1 [Compound 39] | completely cancelling the effect of the Eis upregulation
5 | CCc1cccc(N(C)S(=O)(=O)c2ccc3[nH]c(=O)c(=O)[nH]c3c2)c1 [Compound 42] | did not produce compounds capable of overcoming KAN resistance
6 | CN(c1cccc(C(C)(C)C)c1)S(=O)(=O)c1ccc2[nH]c(=O)c(=O)[nH]c2c1 [Compound 45] | did not produce compounds capable of overcoming KAN resistance
7 | COc1cc(N(C)S(=O)(=O)c2ccc3[nH]c(=O)c(=O)[nH]c3c2)cc2ccccc12 [Compound 47] | loss of the effect on MICKAN
